Compound potency records, mixed from different reports. Data source: NIAID ChemDB in PubChem.

ECn is the concentration giving n% inhibition of infection, replication or growth. An empty or dashed field is not shown. MIC bound: limit read from a one-dose screen. CCn: concentration that lowers growth or viability of the cells by n%. Rows are shuffled and stem from different studies. Percent inhibition refers to the dose given; in toxicity tests it is the harm to the cells.

smiles,read by,strain,tested at,measure,setting,kind,cell line,agent,result
Nc1ccn([C@H]2CC[C@@H](COP(=O)(O)F)O2)c(=O)n1,p24,,,EC50,,culture,PBMC,HIV-1,<0.08 µM
N#Cc1c(SCCBr)nsc1-c1ccccc1,plaque count,TYPE B1,,EC50,,culture,HEP-2,Coxsackie virus,>25 µg/mL
Cc1cn(C2CC(OP(=O)(O)OCC3OC(n4cnc5c(=O)[nH]c(N)nc54)CC3OP(C)(=O)OCC3OC(n4cnc5c(=O)[nH]c(N)nc54)CC3OP(C)(=O)OCC3OC(n4cnc5c(=O)[nH]c(N)nc54)CC3OP(C)(=O)OCC3OC(n4cnc5c(N)ncnc54)CC3OP(C)(=O)OCC3OC(n4cnc5c(=O)[nH]c(N)nc54)CC3O)C(COCc3ccc(OCc4ccccc4)c(OCc4ccccc4)c3)O2)c(=O)[nH]c1=O,,,,CC50,,toxicity,MT-4,,>50 µg/mL
O=c1[nH]c(=O)n(-c2ccc([N+](=O)[O-])cc2[N+](=O)[O-])cc1[N+](=O)[O-],,,6.25 µg/mL,inhibition,,culture,,Mycobacterium tuberculosis,93%
C=CP(=O)(O)OC[C@H]1O[C@@H](n2cc(C)c(=O)[nH]c2=O)C[C@@H]1F,p24,,,EC50,,culture,H9,HIV-1,24 µM
CN1C(=O)N(C)P(=O)(c2ccccc2)P1c1ccccc1,BACTEC,H37Rv,12.5 µg/mL,inhibition,,culture,,Mycobacterium tuberculosis,0%
Nc1ccn([C@H]2CC[C@@H](CO)O2)c(=O)n1,,,,CC50,,toxicity,MT-4,,2280 µM
CSP1(SC)=NP(Cl)(Cl)=NP(Cl)(Cl)=N1,BACTEC,H37Rv,128 µg/mL,inhibition,,culture,,Mycobacterium tuberculosis,94%
O=[N+]([O-])c1ccc(Cn2nnc(-c3cc([N+](=O)[O-])cc([N+](=O)[O-])c3)n2)cc1,,My 235/80,,MIC,7 d,culture,,Mycobacterium kansasii,0.5 µM
NC1=NCCN1[N+](=O)[O-],resazurin,H37Rv,6.25 µg/mL,inhibition,,culture,,Mycobacterium tuberculosis,-3%
Nc1cc([As]=O)ccc1O,,,,CC50,,toxicity,MT-2,,0.4 µg/mL
CC1=NO[C@@]2(CC[C@H](C)N3C[C@H]2n2cc(C(=O)NCc4ccc(F)cc4F)c(=O)c(OC(=O)N(C)Cc4ccc(OP(=O)(O)O)cc4)c2C3=O)C1,luminescence,IIIB,,EC50,,culture,MT-4,HIV-1,0.1 µM
NC(=NCCC[C@H](N)C(=O)O)NP(=O)(O)O,,,,CC50,,toxicity,HeLa,,>200 µg/mL
O=[N+]([O-])N1CCCS1(=O)=O,BACTEC,H37Rv,12.5 µg/mL,inhibition,,culture,,Mycobacterium tuberculosis,0%
Cc1cn([C@H]2CC[C@@H](COP(=O)(O)F)O2)c(=O)[nH]c1=O,XTT,,,CC50,,toxicity,PBMC,,580 µM
CCCCN(CCCl)C[C@@H]1CS[C@H](C)O1.O=C(O)C(=O)O,BACTEC,H37Rv,,MIC bound,,culture,,Mycobacterium tuberculosis,>12.5 µg/mL
Cc1cn([C@H]2C=C[C@@H](COP(=O)(O)F)O2)c(=O)[nH]c1=O,XTT,,,CC50,,toxicity,PBMC,,571 µM
Cc1cn([C@H]2C[C@H](N=[N+]=[N-])[C@@H](COP(=O)(F)OCCSC(=O)C(C)(C)C)O2)c(=O)[nH]c1=O,,IIIB,,EC50,,culture,MT-4,HIV-1,0.008 µM
ClP1(Cl)=NP(Cl)(Cl)=NP(c2ccccc2)(c2ccccc2)=N1,BACTEC,H37Rv,,MIC,,culture,,Mycobacterium tuberculosis,≥128 µg/mL
Cc1nc([N+](=O)[O-])cn1-c1ccc([N+](=O)[O-])cc1[N+](=O)[O-],,H37Rv,6.25 µg/mL,inhibition,,culture,,Mycobacterium tuberculosis,91%
O=[N+]([O-])c1cccc2c1no[n+]2[O-],resazurin,H37Rv,6.25 µg/mL,inhibition,,culture,,Mycobacterium tuberculosis,100%
Cc1cn([C@H]2C[C@H](F)[C@@H](COP(=O)(O)C(F)Cl)O2)c(=O)[nH]c1=O,p24,,,EC50,,culture,H9,HIV-1,3.5 µM

3 of the rows above, restated:

smiles,read by,strain,tested at,measure,setting,kind,cell line,agent,result
Nc1ccn([C@H]2CC[C@@H](CO)O2)c(=O)n1,,,,CC50,,toxicity,MT-4,,2280 µM
ClP1(Cl)=NP(Cl)(Cl)=NP(c2ccccc2)(c2ccccc2)=N1,BACTEC,H37Rv,,MIC,,culture,,Mycobacterium tuberculosis,≥128 µg/mL
CN1C(=O)N(C)P(=O)(c2ccccc2)P1c1ccccc1,BACTEC,H37Rv,12.5 µg/mL,inhibition,,culture,,Mycobacterium tuberculosis,0%